Laboratory results published in paper PMC11012547, “Identification and Biological Evaluation of a Novel Small-Molecule Inhibitor of Ricin Toxin” (2024).
pKd: −log10 of the molar value.

Target: RTA (Ricinus communis, UniProt P02879)

Row | Compound | pKd
1 | CCN(CC)S(=O)(=O)c1cccc(NN=C2C(=O)NC(=O)NC2=O)c1 | 6.03
2 | Nc1nc2ncc(CNc3ccc(C(=O)O)cc3)nc2c(=O)[nH]1 | 5.06
